# PubChem BioAssay AID624099, ICCB-Longwood, 2012
# Aim: 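Knock-downs relieving repression by E2 of an HPV18 LCR luciferase reporter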 (primary screen)
# System: human C33A cervical carcinoma cells (HPV-negative) stably expressing BPV1 E2 and an HPV18 LCR luciferase reporter
# Reagent: siRNA pool against human genes, 40 nM
# Duration: 72 h
# Measured: 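HPV18 LCR reporter light per well, converted to plate-wise z-scores that exclude control wells, and averaged over triplicate plates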
# Scale: mean z-score and z-score: higher = stronger reporter signal, weaker E2 silencing
# Rule for the call: 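Hit if mean z-score reaches 2 and two or more of three replicate z-scores also reach 2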
# Here is a random part of about 21,000 reagents. In the full data, 497 (2.4%) got an active call. 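Higher z means weaker E2 silencing; only reporter increases were scored, and knock-downs that hurt cell survival may mask genuine repressor factors.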 Unmarked entries are inactive.
gene knocked down,mean z-score,"z-score, replicate A","z-score, replicate B","z-score, replicate C"
NAE1 (NEDD8 activating enzyme E1 subunit 1),0.84,0.99,0.9,0.64
FITM2 (fat storage inducing transmembrane protein 2),-1.81,-1.95,-1.62,-1.86
SOS1 (SOS Ras/Rac guanine nucleotide exchange factor 1),-0.06,0.37,-0.21,-0.33
CCDC26 (CCDC26 long non-coding RNA),0.35,0.2,0.27,0.59
MAGEB10 (MAGE family member B10),-0.35,-0.39,-0.3,-0.37
RPS2P6 (ribosomal protein S2 pseudogene 6),-0.14,-0.29,-0.21,0.07
RGS20 (regulator of G protein signaling 20),-0.48,-0.68,-0.23,-0.51
SETDB2 (SET domain bifurcated histone lysine methyltransferase 2),-0.9,-1.09,-0.98,-0.62
NACA (nascent polypeptide associated complex subunit alpha),-1.12,-1.19,-1.05,-1.14
THBD (thrombomodulin),0.98,1.16,1.03,0.76
FOXR1 (forkhead box R1),-0.45,-0.88,0.05,-0.51
MRPL3 (mitochondrial ribosomal protein L3),-0.97,-0.65,-1.12,-1.12
KLHL22 (kelch like family member 22),0.02,-0.03,-0.01,0.1
CEND1 (cell cycle exit and neuronal differentiation 1),-0.91,-0.55,-1.11,-1.08
USP25 (ubiquitin specific peptidase 25),-1.24,-1.22,-1.14,-1.34
NAMPT (nicotinamide phosphoribosyltransferase),-0.41,-0.59,-0.59,-0.06
GCNT4 (glucosaminyl (N-acetyl) transferase 4),-1.2,-0.8,-1.31,-1.48
NOS3 (nitric oxide synthase 3),0.86,0.93,1,0.65
NPR1 (natriuretic peptide receptor 1),0.79,1.06,0.75,0.58
ELAVL1 (ELAV like RNA binding protein 1),-0.6,-0.18,-0.92,-0.7
MAPK14 (mitogen-activated protein kinase 14),-0.23,0.07,-0.15,-0.62
ABCB6 (ATP binding cassette subfamily B member 6 (LAN blood group)),-0.71,-0.58,-0.79,-0.75
POPDC1 (popeye domain cAMP effector 1),0.05,0.01,0,0.14
SDK1 (sidekick cell adhesion molecule 1),-0.04,-0.35,0.45,-0.23
TRPT1 (tRNA phosphotransferase 1),-0.86,-1.31,-0.57,-0.71
"ZFPM1 (zinc finger protein, FOG family member 1)",1.41,1.42,1.55,1.26
LINC00922 (long independently transcribed non-coding RNA 922),1.35,1.11,1.79,1.15
PEX11G (peroxisomal biogenesis factor 11 gamma),0.01,0.42,-0.36,-0.03
PTCH2 (patched 2),-0.66,-0.71,-0.72,-0.53
MAPK15 (mitogen-activated protein kinase 15),-0.99,-0.63,-1.04,-1.31
TMEM101 (transmembrane protein 101),1.15,1.3,0.99,1.16
MTDH (metadherin),0.42,0.68,0.34,0.24
NFE2L2 (NFE2 like bZIP transcription factor 2),-0.07,-0.1,-0.01,-0.08
CAV2 (caveolin 2),0.28,0.21,0.32,0.3
RGS22 (regulator of G protein signaling 22),-0.59,-0.62,-0.78,-0.38
PLAC4 (placenta associated 4),0.62,1.59,-0.28,0.56
DAP3 (death associated protein 3),0.85,0.94,0.72,0.88
CISD1 (CDGSH iron sulfur domain 1),0.92,0.5,1.31,0.95
MAGEA12 (MAGE family member A12),-0.44,-0.47,-0.68,-0.18
HTATSF1P2 (HIV-1 Tat specific factor 1 pseudogene 2),-0.61,-0.56,-0.66,-0.61
POLR2MP1 (POLR2M pseudogene 1),0.69,0.9,0.99,0.16
C2CD2L (C2CD2 like),-0.77,-0.73,-0.67,-0.91

The list goes on (10 carried over from the part before).
gene knocked down,mean z-score,"z-score, replicate A","z-score, replicate B","z-score, replicate C"
NFE2L2 (NFE2 like bZIP transcription factor 2),-0.07,-0.1,-0.01,-0.08
CAV2 (caveolin 2),0.28,0.21,0.32,0.3
RGS22 (regulator of G protein signaling 22),-0.59,-0.62,-0.78,-0.38
PLAC4 (placenta associated 4),0.62,1.59,-0.28,0.56
DAP3 (death associated protein 3),0.85,0.94,0.72,0.88
CISD1 (CDGSH iron sulfur domain 1),0.92,0.5,1.31,0.95
MAGEA12 (MAGE family member A12),-0.44,-0.47,-0.68,-0.18
HTATSF1P2 (HIV-1 Tat specific factor 1 pseudogene 2),-0.61,-0.56,-0.66,-0.61
POLR2MP1 (POLR2M pseudogene 1),0.69,0.9,0.99,0.16
C2CD2L (C2CD2 like),-0.77,-0.73,-0.67,-0.91
SSBP4 (single stranded DNA binding protein 4),-2.18,-2.52,-1.94,-2.07
GUCY2C (guanylate cyclase 2C),0.69,0.8,0.48,0.8
ICAM1 (intercellular adhesion molecule 1),-1.11,-1.27,-1.1,-0.96
SEPHS2 (selenophosphate synthetase 2),1.53,1.66,1.59,1.35
IL5RA (interleukin 5 receptor subunit alpha),0.13,0.15,0.14,0.09
RPSAP27 (ribosomal protein SA pseudogene 27),-0.16,-0.27,-0.21,0.01
NIPSNAP1 (nipsnap homolog 1),-1.78,-1.45,-1.75,-2.16
CYB5D2 (cytochrome b5 domain containing 2),0.65,1.13,0.48,0.33
ADRM1 (ADRM1 26S proteasome ubiquitin receptor),-0.3,-0.35,-0.18,-0.37
"PPM1E (protein phosphatase, Mg2+/Mn2+ dependent 1E)",-0.34,-0.62,-0.46,0.08
PCYOX1 (prenylcysteine oxidase 1),-1.09,-0.59,-1.18,-1.5
POM121 (POM121 transmembrane nucleoporin),-0.13,-0.21,-0.17,0
KRT33A (keratin 33A),0.72,0.78,0.73,0.64
NCAPH (non-SMC condensin I complex subunit H),0.74,0.58,0.78,0.86
ENDOV (endonuclease V),0.94,0.91,0.8,1.11
PTK7 (protein tyrosine kinase 7 (inactive)),-0.91,-0.82,-1.28,-0.65
PPP1R3A (protein phosphatase 1 regulatory subunit 3A),-0.25,-0.44,-0.12,-0.19
NCMAP (non-compact myelin associated protein),0.14,0.49,0.23,-0.31
USP42 (ubiquitin specific peptidase 42),-0.7,-0.53,-0.74,-0.85
LOC401471,0.89,0.84,1.01,0.83
CDCA7 (cell division cycle associated 7),0.26,0.21,0.22,0.37
TSN (translin),-0.81,-0.74,-0.79,-0.89
LALBA (lactalbumin alpha),-0.42,-0.24,-0.27,-0.75
PIWIL1 (piwi like RNA-mediated gene silencing 1),-1.09,-1.15,-1.02,-1.11
MTX1 (metaxin 1),0.29,0.17,0.47,0.23
GABRB2 (gamma-aminobutyric acid type A receptor subunit beta2),-0.12,-0.2,-0.12,-0.06
PIK3C2G,1.91,0.99,3.67,1.06
C3orf22 (chromosome 3 open reading frame 22),-1.61,-1.36,-1.77,-1.7
VDAC3 (voltage dependent anion channel 3),0.57,0.34,1.02,0.34
CYTL1 (cytokine like 1),0.09,0.03,0.16,0.07
CDT1 (chromatin licensing and DNA replication factor 1),-1.51,-1.33,-1.66,-1.53
